Results of unrelated studies side by side (data: NIAID ChemDB).

Shared fields: tests in culture; species: Mycobacterium avium complex; read-out: MIC

Lines come from different laboratories, so protocols vary.

SMILES,strain or isolate,value
CC1(C)N=C(N)N=C(N)N1OCCCOc1cc(Cl)c(Cl)cc1Cl,3010,2 µg/mL
CC[C@H]1OC(=O)[C@H](C)[C@@H](O[C@H]2C[C@@](C)(OC)[C@@H](O)[C@H](C)O2)[C@H](C)[C@@H](O[C@@H]2O[C@H](C)C[C@H](N(C)C)[C@H]2O)[C@](C)(OC)C[C@@H](C)C(=O)[C@H](C)[C@@H](O)[C@]1(C)O,Isolate 90-0727,2 µg/mL
CCNC(=O)[C@@H](NC(=O)Cc1ccccc1)[C@@H]1N[C@@H](C(=O)NCCNC(=O)[C@@H]2N[C@@H]([C@H](NC(=O)Cc3ccccc3)C(=O)NCC)SC2(C)C)C(C)(C)S1,CIPT 140310006,25 µg/mL
CCCNC(=O)OCCN=c1ssc2ccccc12,AN3,4 µg/mL
CCCCCNC(=O)O[C@H]1C(O[C@@H]2[C@@H](C)[C@H](O[C@H]3C[C@@](C)(OC)[C@@H](OC(C)=O)[C@H](C)O3)[C@@H](C)C(=O)O[C@H](CC)[C@@](C)(O)[C@H](O)[C@@H](C)/C(=N/OCCCC3CCCCC3)[C@H](C)CC2(C)O)O[C@H](C)C[C@@H]1N(C)C,20092,0.1 µg/mL
COCc1c(CNc2cc(OC)c(OC)c(OC)c2)cnc2nc(N)nc(N)c12,NJ3404,>13 µg/mL
CC1CN(c2cc3c(cc2F)c(=O)c(C(=O)O)cn3-c2ccc(F)cc2F)CCN1,MO-1,2 µg/mL
Cc1c(CN2CCN(C)CC2)cc(-c2ccccc2Cl)n1-c1cccc2ccccc12,103317,4 µg/mL
CC[C@H]1OC(=O)[C@H](C)[C@@H](O[C@H]2C[C@@](C)(OC)[C@@H](OC(C)=O)[C@H](C)O2)[C@H](C)[C@@H](O[C@@H]2O[C@H](C)C[C@H](N(C)C)[C@H]2O)C(C)(O)C[C@@H](C)/C(=N\OCCc2cccs2)[C@H](C)[C@@H](O)[C@]1(C)O,20096 (clarithromycin-resistant),12.5 µg/mL
CC[C@H]1OC(=O)[C@H](C)[C@@H](O[C@H]2C[C@@](C)(OC)[C@@H](O)[C@H](C)O2)[C@H](C)[C@@H](O[C@@H]2O[C@H](C)C[C@H](N(C)C)[C@H]2O)[C@](C)(O)C[C@@H](C)/C(=N\OCOCCOC)[C@H](C)[C@@H](O)[C@]1(C)O,Isolate 90-0827,8 µg/mL
OCCn1sc2ccccc2c1=S,AN1,2 µg/mL
CC[C@H]1OC(=O)[C@H](C)[C@@H](O[C@H]2C[C@@](C)(OC)[C@@H](O)[C@H](C)O2)[C@H](C)[C@@H](O[C@@H]2O[C@H](C)C[C@H](N(C)C)[C@H]2O)[C@](C)(OC)C[C@@H](C)C(=O)[C@H](C)[C@@H](O)[C@]1(C)O,N-93043,2 µg/mL
CCN=c1cc2n(-c3ccc(Cl)cc3)c3ccccc3nc-2cc1Nc1ccc(Cl)cc1,1017,0.25 µg/mL
COc1cc(OC)cc(N(C)Cc2cnc3nc(N)nc(N)c3c2C)c1,NJ-168 serovar 4,≤0.128 µg/mL
CC[C@H]1OC(=O)[C@H](C)[C@@H](O[C@H]2C[C@@](C)(OC)[C@@H](OC(C)=O)[C@H](C)O2)[C@H](C)[C@@H](OC2O[C@H](C)C[C@H](N(C)C)[C@H]2OC(N)=O)C(C)(O)C[C@@H](C)/C(=N\OCCCC2CCCCC2)[C@H](C)[C@@H](O)[C@]1(C)O,20096,>50 µg/mL
CC[C@H]1OC(=O)[C@H](C)[C@@H](OC(=O)CCCc2ccccc2)[C@H](C)[C@@H](O[C@@H]2O[C@H](C)C[C@H](N(C)C)[C@H]2O)C(C)(O)C[C@@H](C)/C(=N\OCCCOc2ccccc2)[C@H](C)[C@@H](O)[C@]1(C)O,20092 (clarithromycin-resistant),12.5 µg/mL
CCNC(=O)OCCn1sc2ccccc2c1=S,AN1,4 µg/mL
Cc1c(CN2CCN(C)CC2)cc(-c2ccccc2F)n1-c1ccccc1F,103317,>16 µg/mL
Cc1c(CNc2ccc(OC(F)F)cc2)cnc2nc(N)nc(N)c12,NJ211,≤0.13 µg/mL
CO[C@H]1/C=C/O[C@@]2(C)Oc3c(C)c(O)c4c(O)c(c5c(c4c3C2=O)NC2(CCN(CC(C)C)CC2)N=5)=NC(=O)/C(C)=C\C=C\[C@H](C)[C@H](O)[C@@H](C)[C@@H](O)[C@@H](C)[C@H](OC(C)=O)[C@@H]1C,CIPT 140310003 (rough),0.25 µg/mL
CC(C)NC(=O)OCCn1sc2ccccc2c1=O,AN1,16 µg/mL
C#CCNC(=O)O[C@H]1C(O[C@@H]2[C@@H](C)[C@H](O[C@H]3C[C@@](C)(OC)[C@@H](OC(C)=O)[C@H](C)O3)[C@@H](C)C(=O)O[C@H](CC)[C@@](C)(O)[C@H](O)[C@@H](C)/C(=N/OCCCC3CCCCC3)[C@H](C)CC2(C)O)O[C@H](C)C[C@@H]1N(C)C,20034,0.2 µg/mL
COc1ccc(C(F)(F)F)cc1NCc1cnc2nc(N)nc(N)c2c1C,NJ168,≤0.13 µg/mL
N#Cc1ccnc(SCc2ccc(Cl)cc2)c1,MY330/88,>500 µM
COc1ccc(C)c(NCc2cnc3nc(N)nc(N)c3c2C)c1,NJ-168 serovar 4/6,≤0.128 µg/mL
Cc1c(CN2CCSCC2)cc(-c2ccccc2Cl)n1-c1ccccc1Cl,103317,8 µg/mL
N#Cc1ccnc(SCc2c(F)cccc2[N+](=O)[O-])c1,MY330/88,>500 µM
COc1ccc(C(F)(F)F)cc1NCc1cnc2nc(N)nc(N)c2c1C,NJ-168 serovar 4/6,≤0.128 µg/mL
CC(C)N=c1cc2n(-c3ccc(Cl)cc3)c3ccccc3nc-2cc1Nc1ccc(Cl)cc1,453,0.25 µg/mL
CC(=O)Nc1ccc(/C(C)=N\NC(N)=S)cc1,100,16 µg/mL
CC[C@H]1OC(=O)[C@H](C)[C@@H](OC(=O)Cc2cccnc2)[C@H](C)[C@@H](O[C@@H]2O[C@H](C)C[C@H](N(C)C)[C@H]2O)C(C)(O)C[C@@H](C)/C(=N\OCCCOc2ccccc2)[C@H](C)[C@@H](O)[C@]1(C)O,20039 (clarithromycin-susceptible),3.13 µg/mL
NC(=S)c1ccnc(SCc2ccccc2)c1,MY330/88,62 µM
CN[C@@H]1[C@@H](O)C(O[C@@H]2[C@@H](O)[C@H](OC3O[C@H](CN)[C@@H](O)[C@H](O)[C@H]3O)[C@@H](N)C[C@H]2NC(=O)[C@@H](O)CN)OC[C@]1(C)O,J14,12.5 µg/mL
Cc1c(CN2CCSCC2)cc(-c2ccccc2)n1-c1ccc(F)cc1,103317,2 µg/mL
N#Cc1ccnc(SCc2ccc(Br)cc2)c1,MY330/88,250 µM
CN[C@@H]1[C@H](O[C@H]2[C@H](O[C@H]3[C@H](O)[C@@H](O)[C@H](N=C(N)N)[C@@H](O)[C@@H]3N=C(N)N)O[C@@H](C)[C@]2(O)C=O)O[C@@H](CO)[C@H](O)[C@H]1O,CIPT 140310002,5 µg/mL
Cc1ccc(NCc2cnc3nc(N)nc(N)c3c2C)cc1Br,NJ168,≤0.13 µg/mL
CC[C@H]1OC(=O)[C@H](C)[C@@H](O[C@H]2C[C@@](C)(OC)[C@@H](O)[C@H](C)O2)[C@H](C)[C@@H](O[C@@H]2O[C@H](C)C[C@H](N(C)C)[C@H]2O)[C@](C)(O)C[C@@H](C)CN(C)[C@H](C)[C@@H](O)[C@]1(C)O,LV-2,16 µg/mL
CC1(C)S[C@@H]2[C@H](NC(=O)[C@H](C(=O)[O-])c3ccsc3)C(=O)N2[C@H]1C(=O)[O-].[Na+].[Na+],CIPT 140310005,50 µg/mL
N#Cc1ccnc(SCc2ccccc2Cl)c1,MY330/88,>750 µM
CO[C@H]1/C=C/O[C@@]2(C)Oc3c(C)c(O)c4c(=O)c(c5oc6cc(N7CCN(CC(C)C)CC7)cc(=O)c6nc5c4c3=C2O)NC(=O)/C(C)=C\C=C\[C@H](C)[C@H](O)[C@@H](C)[C@@H](O)[C@@H](C)[C@H](OC(C)=O)[C@@H]1C,N-444,0.06 µg/mL
NC(=S)c1ccnc(SCc2cccc(F)c2)c1,MY330/88,31 µM
CCCNC(=O)OCCn1sc2ccccc2c1=S,AN1,4 µg/mL
CC/C=C/CCNC(=O)O[C@H]1C(O[C@@H]2[C@@H](C)[C@H](O[C@H]3C[C@@](C)(OC)[C@@H](OC(C)=O)[C@H](C)O3)[C@@H](C)C(=O)O[C@H](CC)[C@@](C)(O)[C@H](O)[C@@H](C)/C(=N/OCCCC3CCCCC3)[C@H](C)CC2(C)O)O[C@H](C)C[C@@H]1N(C)C,20096,0.2 µg/mL
CC[C@H]1OC(=O)[C@H](C)[C@@H](O[C@H]2C[C@@](C)(OC)[C@@H](OC(C)=O)[C@H](C)O2)[C@H](C)[C@@H](O[C@@H]2O[C@H](C)C[C@H](N(C)C)[C@H]2O)C(C)(O)C[C@@H](C)/C(=N\OCC2CCCCC2)[C@H](C)[C@@H](O)[C@]1(C)O,20039 (clarithromycin-susceptible),3.13 µg/mL
NC(=S)c1ccnc(SCc2ccccc2F)c1,MY330/88,62 µM
CCNC(=O)O[C@H]1C(O[C@@H]2[C@@H](C)[C@H](O[C@H]3C[C@@](C)(OC)[C@@H](OC(C)=O)[C@H](C)O3)[C@@H](C)C(=O)O[C@H](CC)[C@@](C)(O)[C@H](O)[C@@H](C)/C(=N/OCCCC3CCCCC3)[C@H](C)CC2(C)O)O[C@H](C)C[C@@H]1N(C)C,20092,>50 µg/mL

The last 6 rows once more:

SMILES | strain or isolate | value
NC(=S)c1ccnc(SCc2cccc(F)c2)c1 | MY330/88 | 31 µM
CCCNC(=O)OCCn1sc2ccccc2c1=S | AN1 | 4 µg/mL
CC/C=C/CCNC(=O)O[C@H]1C(O[C@@H]2[C@@H](C)[C@H](O[C@H]3C[C@@](C)(OC)[C@@H](OC(C)=O)[C@H](C)O3)[C@@H](C)C(=O)O[C@H](CC)[C@@](C)(O)[C@H](O)[C@@H](C)/C(=N/OCCCC3CCCCC3)[C@H](C)CC2(C)O)O[C@H](C)C[C@@H]1N(C)C | 20096 | 0.2 µg/mL
CC[C@H]1OC(=O)[C@H](C)[C@@H](O[C@H]2C[C@@](C)(OC)[C@@H](OC(C)=O)[C@H](C)O2)[C@H](C)[C@@H](O[C@@H]2O[C@H](C)C[C@H](N(C)C)[C@H]2O)C(C)(O)C[C@@H](C)/C(=N\OCC2CCCCC2)[C@H](C)[C@@H](O)[C@]1(C)O | 20039 (clarithromycin-susceptible) | 3.13 µg/mL
NC(=S)c1ccnc(SCc2ccccc2F)c1 | MY330/88 | 62 µM
CCNC(=O)O[C@H]1C(O[C@@H]2[C@@H](C)[C@H](O[C@H]3C[C@@](C)(OC)[C@@H](OC(C)=O)[C@H](C)O3)[C@@H](C)C(=O)O[C@H](CC)[C@@](C)(O)[C@H](O)[C@@H](C)/C(=N/OCCCC3CCCCC3)[C@H](C)CC2(C)O)O[C@H](C)C[C@@H]1N(C)C | 20092 | >50 µg/mL